# Square brackets hold non-standard residues; d marks the D form. Ends that are not written are not given here. Phg = N[C@H](C(=O)O)c1ccccc1
# Target: T1, HLA-A*0201 (Homo sapiens, UniProt P04439, D140Y/D185E/D98H/E176V/E277Q/G131W/G231S/I119V/I121R/I166T/I218V/L300P/L318F/N151K/N90K/P208A/P217A/Q86G/Q94H/R138H/R169H/T345S)
# T1 construct: Soluble MHC was dissolved in PBS containing 0.5 mg/ml bovine γ-globulin; made in house
# Type: binding
Substance,"FP binding score, percentage inhibition of tracer peptide binding, 4h [%]","FP binding score, percentage inhibition of tracer peptide binding, 24h [%]"
GILGFVFT[ALG] [G13],88,88
GILGFVFT[CpALA] [G3],90,90
GILGFVFT[PRG] [G17],88,88
G[NLE]LGFVFTL [G16],91,90
N[NLE]LSTVLGV [N53],66,61
[4-FPHE]MYSDFHF[2-AOC] [F5],95,94
[CSME]ILGFVFTL [G11],72,70
[PHG][2-AOC]LSTVLGV [N172],89,86
[Phg]ILGFVFTL [G7],96,94

# Reference: publication PMC4917206, “Chemical Modification of Influenza CD8+ T-Cell Epitopes Enhances Their Immunogenicity Regardless of Immunodominance” (PLoS ONE, 2016)
